Experimental data published in US20150197559A1 (University of California, published 2015).

Columns and labels:
BoNT/B2 [1] = biological target: T1, BoNT/B2 (Clostridium botulinum); assay: flow cytometry, yeast-displayed scFv, soluble toxin
BoNT/B4 [2] = biological target: T2, BoNT/B4 (Clostridium botulinum); assay: as above
BoNT/B3 [3] = biological target: T3, BoNT/B3 (Clostridium botulinum); assay: as above
BoNT/B2 [4] = biological target: T1, BoNT/B2; assay: flow cytometry, yeast-displayed Fab, soluble toxin
BoNT/B2 [5] = biological target: T1, BoNT/B2; assay: KinExA flow fluorimetry, IgG in solution
BoNT/B4 [6] = biological target: T2, BoNT/B4; assay: KinExA flow fluorimetry, IgG in solution
BoNT/B3 [7] = biological target: T3, BoNT/B3; assay: KinExA flow fluorimetry, IgG in solution
Complex BoNT/A3 = Complex BoNT/A3 (Clostridium botulinum); assay: KinExA flow fluorimetry, IgG in solution

| Binder | Kd (BoNT/B2 [1]) [nM] | Kd (BoNT/B4 [2]) [nM] | Kd (BoNT/B3 [3]) [nM] | also measured |
| --- | --- | --- | --- | --- |
| 4B19 scFv (scFv) scFv: QVQLVQSGAEVKKPGASVNVSCKASGYTFTGYYIYWVRQAPGQGLEWMGWINPNSGVTKYAQKFQGRVTMTIDTSTNTAYMELNRLRADDTAVYYCAREWTQLWSPYDYWGQGTTVTVSSGGGGSGGGGSGGGGSDIVLTQSPSTLSASVGDRVTISCRASRSIGWYLNWYQQRPGKAPKLLIYAASSLHNGVPSRFSGSGSGTEFTLTISSLQPDDFATYYCQQAFGFPRTFGQGTKVEIK | 7.03 | 3.3 | 3.9 |  |
| 1B22 scFv (scFv) scFv: QVQLQESGSRLVKPSQTLSLTCGVSGGSISSSSYSWSWIRQTPGKGLEWIGYIYHSGSTYYNPSLKSRVTMSVDKSRNQFSLNMSSVTAADTAVYYCARTAFYYENTGPIRCYLDFWGQGTLVTVSSGGGGSGGGGSGGGGSDIQMTQSPSTLSASIGDRVTISCRASQSIQSWLAWYQQRPGEAPKLLIYSASTLQTGVPSRFSGSGSGTDFTLTISSLQPEDFATYYCQQYNSYPLTFGQGTKLEIK | 0.46 | 0.48 | 0.39 |  |
| 1B10 scFv (scFv) scFv: QVQLVESGGGVVQPGRSLRLSCAASGFTFSHYGMHWVRQSPGKGLEWVAVIWYDGRNPYYAASVKGRFTISRDNDKNTLYLQMNSLRAEDTAVYYCVKDLTRFHDTTFGVFEMWGPGTTVTVSSGGGGSGGGGSGGGGSEIVLTQSPSSLSASVGDRITITCRASQSISSWLAWYQQKPGKAPMVLIYKASSLENGVPSRFSGSGSGTEFTLTISSLQPDDFATYYCQQYSTYSRTFGQGTKVEIK | 9.4 | 4.69 |  |  |
| 2B23 scFv (scFv) scFv: EVQLLESGGGLVQPGGSLRLSCAASGFTFSNYPMSWVRQAPGKGLAWVSSLTASGDNTFYADSVKGRFTISRDNSNNTLYLQMHSLRAEDTAVYYCAKALVGRYDISTGYYRPVMDSWGQGTLVTVSSGGGGSGGGGSGGGGSDIQMTQSPPSLSASVGDRVTITCRTSQGFTSALAWYQQKPGEPPKLLIYDASKLESGVPSRFSGSGSGTNFALTISSLQPEDFATYFCQQSNSYPLTFGGGTKVEIK | 0.13 | 0.19 | 0.25 |  |
| 4B7 scFv (scFv) scFv: QVQLQQSGPGLVKPSQTLSLTCSVSGGSINSDGSYWSWVRQHPGKGLEWIGYIYYSGTTYFNPSLKSRLTMSVDTSKNQFSLKMTSVTAADTAVYYCARMSGSRSYSQYYFDSWGQGTLVTVSSGGGGSGGGGSGGGGSDIQMTQSPSSLSASVGDRVTITCRASQSISSYLNWYQQKPGTAPKLLISDASTLQSGVPSRFSGSGSGTEFTLTISNLQPEDFATYYCQQFNSYVWTFGQGTKLEIK | 34.8 | 10 |  |  |
| 4B6 scFv (scFv) scFv: QVQLVQSGAEVKKPGESLVISCKASGDKDTFTSFWIAWVRQMPGKGLEWMGIIYAGDSDTRYSPSFQGHVNISVDRSTNTAYLQWSSLKASDTAMYYCARHDSRYKYFYFGMDVWGQGTTVTVSSGGGGSGGGGSGGGGSDVVMTQSPSSLSASVGDRITITCQAGQDISNFLNWYQQKPGKAPKLLIRDASNLETGVPSRFSGGGSGTHFTFTISSLHPEDIATYFCQQYDNLPYTFGQGTKLEIK | 1.77 |  |  |  |
| 2B24 scFv (scFv) scFv: QVQLVESGGGVVQPGRSLRLSCAASGLTFSVYGMHWVRQAPGKGLEWVAVISHTGSEEYYADSVKGRFSISRDNSNNTLFLQMNSLRPEDTAVYYCVKDGPMAAIPFYYFDFWGQGTLVTVSSGGGGSGGGGSGGGGSQSVVTQPPSVSAAPGQKVTISCSGSSSNIGNNYVSWYQQLPGTAPKLLIYDNNKRPSGIPDRFSGSKSGTSATLGITGLQTGDEADYYCGTWDSSLSAGVFGGGTKLTVL | 4 | 0.72 | 4 |  |
| 2B25 scFv (scFv) scFv: QVQLQESGPGLVKPSQTLSLSCSVSGASITSGTFYWSWIRQHPGKDLEWIGYIYYSGTTYYNPSLKSRVTLSVDTSKNQFSLKVTSLTAADTAVYHCARGVPIYDSSGTYRGTYFDYWGQGTLVTVSSGGGGSGGGGSGGGGSQPGLTQPPSASGTPGQRVTISCSGSSSNVGSNTVNWYQQLPGTAPKLLIYRNDQRPSGVPDRFSGSKSGASASLAISGLRSEDEADYYCAAWDDSLNGLLFGGGTQLTVL | 0.63 | 0.68 | 0.93 |  |
| B6.1 Fab (Fab, V domains shown) VH: QVQLVQSGAEVKKPGESLVISCKASGDKDTFTSFWIAWVRQMPGKGLEWMGIIYAGDSDTRYSPSFQGHVNISVDRSTNTAYLQWSSLKASDTAMYYCARHDSRYKYFYFGMDVWGQGTTVTVSS VL: not shown |  |  |  | Kd (BoNT/B2 [4]): 0.246 nM |
| B6.1 IgG (antibody, V domains shown) VH: QVQLVQSGAEVKKPGESLVISCKASGDKDTFTSFWIAWVRQMPGKGLEWMGIIYAGDSDTRYSPSFQGHVNISVDRSTNTAYLQWSSLKASDTAMYYCARHDSRYKYFYFGMDVWGQGTTVTVSS VL: not shown |  |  |  | Kd (BoNT/B2 [5]): 9.18 pM; Kd (BoNT/B4 [6]): 9.41 pM; Kd (BoNT/B3 [7]): 0.0285 nM |
| ING1 IgG (antibody, V domains shown) VH: QVQLQQSGGGLVQPGGSLRLSCAASGFTFSNYAMTWVRQAPGKGLEWVSSISVGGSDTYYADSVKGRFTVSRDNSKNTLLLQMNSLRAEDTAVYYCAKVRTKYCSSLSCFAGFDSWGQGTRVTVSS VL: not shown |  |  |  | Kd (Complex BoNT/A3): 0.4 nM |
